Anti-infective test results gathered from many reports (values: NIAID ChemDB through PubChem).

All rows: whole-cell or culture tests; agent: Candida albicans; measure: inhibition

Conditions beyond the fields shown may differ between rows. Inhibition is in % at the dose shown (toxicity tests: loss of growth or viability). An empty or dashed field is not shown.

structure | strain | read by | changes | tested at | result
Cc1cc(C=Nc2ccc(N=Cc3cc(C)cc(/C=N/Nc4nc5ccccc5s4)c3O)cc2)c(O)c(/C=C/Nc2nc3ccccc3s2)c1 | - | turbidity | - | 10 µg/mL | 1.35%
NCCCC[C@H](NC(=O)[C@H](CCCN=C(N)N)NC(=O)[C@H](CCCN=C(N)N)NC(=O)[C@H](CCCCN)NC(=O)[C@H](CCCCN)NC(=O)[C@@H](N)CCCCN)C(=O)N[C@@H](CCCN=C(N)N)C(=O)O | ATCC 10231 | - | - | 50 µM | 0%
CC(C)(O)c1cn(-c2ccc([N+](=O)[O-])cc2)nn1 | URM 4125 | broth dilution | - | 2048 µg/mL | 0%
COc1ccc(CC(c2ccc(OC)cc2)n2cncn2)cc1 | 28 strains | - | - | 256 µg/mL | 86%
CC(C)(O)c1cn(-c2ccc3ccccc3c2)nn1 | URM 4986 | broth dilution | - | 2048 µg/mL | 0%
COc1ccc(C(=O)Cn2ccnc2)cc1 | Fluconazole-resistant | broth dilution | - | 100 µg/mL | 79%
CC[C@@H](c1ccc(Cl)cc1)[C@@H](c1ccc(OC)cc1)n1cnnc1 | 28 strains | - | - | 256 µg/mL | 57%
OC(Cn1cncn1)c1ccc(F)cc1F | Fluconazole-resistant | broth dilution | - | 100 µg/mL | 44%
COc1ccc(C(Cc2ccc(Cl)cc2)n2cnnc2)cc1 | 28 strains | - | - | 256 µg/mL | 100%
CC(=O)OC[C@H]1O[C@@H](O[C@@H]2[C@@H](N=[N+]=[N-])[C@H](O)[C@H](O)[C@H]3OC(C)(C)O[C@H]32)[C@H](OC(C)=O)[C@@H](OC(C)=O)[C@H]1OC(C)=O | ATCC 10231 | broth dilution / turbidity | - | 15.6 µg/mL | 13.24%
C[C@H]1[C@H](O)[C@@H](C)/C=C/C=C/C=C/C=C/C=C/C=C/C=C/[C@H](O[C@@H]2O[C@H](C)[C@@H](O)[C@H](N)[C@@H]2O)C[C@@H]2O[C@](O)(C[C@@H](O)C[C@@H](O)CC[C@H](O)[C@@H](O)C[C@@H](O)CC(=O)O[C@H]1C)C[C@H](O)[C@H]2C(=O)O | ATCC 90028 | broth dilution | cph1 | 1 µg/mL | 100%
COc1ccc(C(Cc2ccc(Cl)cc2Cl)C(c2ccc(OC)cc2)n2cnnc2)cc1 | 28 strains | - | - | 256 µg/mL | 0%
CC(C)(O)c1cn(-c2cccc3ccccc23)nn1 | URM 3716 | broth dilution | - | 2048 µg/mL | 0%
COc1ccc(C(C(Cc2ccc(Cl)cc2Cl)c2ccc(Cl)cc2)n2cncn2)cc1 | 28 strains | - | - | 256 µg/mL | 18%
O=C(Cn1ccnc1)c1ccc(F)cc1F | Fluconazole-resistant | broth dilution | - | 80 µg/mL | 27%

The last 2 rows once more:

| structure | strain | read by | changes | tested at | result |
|---|---|---|---|---|---|
| COc1ccc(C(C(Cc2ccc(Cl)cc2Cl)c2ccc(Cl)cc2)n2cncn2)cc1 | 28 strains | - | - | 256 µg/mL | 18% |
| O=C(Cn1ccnc1)c1ccc(F)cc1F | Fluconazole-resistant | broth dilution | - | 80 µg/mL | 27% |